Data published in article PMC8807572, “The zebrafish embryo as an in vivo model for screening nanoparticle-formulated lipophilic anti-tuberculosis compounds” (Disease Models & Mechanisms, 2022).
Where “and” joins values, the source holds several entries; their conditions need not be identical. Equal entries are not always repeated.

Test system: intracellular Mm in murine BMDMs
Assay: Anti-mycobacterial efficacy in M. marinum-infected BMDMs (CFU plating)
Type: cell-based, Mycobacterium marinum
Settings: ratio of intracellular IC90 to extracellular MIC90

SMILES | IC90/MIC90
COc1ccc2c(ccc3oc([N+](=O)[O-])cc32)c1 [C16, 7-methoxy-2-nitronaphtho[2,1-b]furan] | 0.82
CO[C@H]1/C=C/O[C@@]2(C)Oc3c(C)c(O)c4c(O)c(c(/C=N/N5CCN(C)CC5)c(O)c4c3C2=O)NC(=O)/C(C)=C\C=C\[C@H](C)[C@H](O)[C@@H](C)[C@@H](O)[C@@H](C)[C@H](OC(C)=O)[C@@H]1C [RIF, rifampicin] | 9 and 8.78
